PubChem BioAssay AID624099, ICCB-Longwood | 2012
The whole screen tested about 21,000 reagents; this is a random part of them. 497 of them (2.4%) count as active. 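Higher z means weaker E2 silencing; only reporter increases were scored, and knock-downs that hurt cell survival may mask genuine repressor factors.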 Reagents against one gene are numbered here. Reagent sequences are not shown.

Purpose: 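Host factors E2 relies on to silence an HPV18 LCR reporter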 (primary screen)
Cell system: human C33A cervical carcinoma cells (HPV-negative) stably expressing BPV1 E2 and an HPV18 LCR luciferase reporter
Reagents: siRNA pool against human genes, 40 nM
Timing: 72 h
Detection: 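HPV18 LCR reporter light per well, converted to plate-wise z-scores that exclude control wells, and averaged over triplicate plates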
Scale: mean z-score and z-score: higher = stronger reporter signal, weaker E2 silencing
Active means: 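Hit if mean z-score reaches 2 and two or more of three replicate z-scores also reach 2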

The opening 5 records, ahead of the listing:
gene | reagent no. | mean z-score | z-score, replicate A | z-score, replicate B | z-score, replicate C | outcome
ACY3 | 1 | 0.34 | 0.35 | 0.35 | 0.32 | inactive
TPM1 | 1 | -0.25 | -0.17 | -0.18 | -0.4 | inactive
GGPS1 | 1 | 0.11 | 0.21 | -0.12 | 0.24 | inactive
LOC256283 (retired record) | 1 | -0.64 | -0.92 | -0.71 | -0.29 | inactive
C4B | 1 | -0.06 | 0.09 | -0.27 | -0.02 | inactive

The list itself, from the start:
gene | reagent no. | mean z-score | z-score, replicate A | z-score, replicate B | z-score, replicate C | outcome
ACY3 | 1 | 0.34 | 0.35 | 0.35 | 0.32 | inactive
TPM1 | 1 | -0.25 | -0.17 | -0.18 | -0.4 | inactive
GGPS1 | 1 | 0.11 | 0.21 | -0.12 | 0.24 | inactive
LOC256283 (retired record) | 1 | -0.64 | -0.92 | -0.71 | -0.29 | inactive
C4B | 1 | -0.06 | 0.09 | -0.27 | -0.02 | inactive
C4B | 2 | -0.38 | -0.17 | -0.27 | -0.7 | inactive
DDX54 | 1 | -1.24 | -1.39 | -1.11 | -1.21 | inactive
FTCD | 1 | -0.67 | -0.74 | -0.51 | -0.77 | inactive
ZNF556 | 1 | -0.38 | -0.45 | -0.35 | -0.34 | inactive
ADCY6 | 1 | 1.29 | 1.43 | 1.15 | 1.3 | inactive
TIMM50 | 1 | 0.15 | -0.03 | 0.19 | 0.28 | inactive
MAOB | 1 | 0.65 | 0.56 | 0.78 | 0.6 | inactive
IL20RB | 1 | -1.38 | -0.78 | -1.52 | -1.86 | inactive
MYH13 | 1 | -0.15 | -0.28 | -0.28 | 0.11 | inactive
DCTN2 | 1 | -0.6 | -0.53 | -0.51 | -0.75 | inactive
C12orf60 | 1 | 0.65 | 0.41 | 0.76 | 0.77 | inactive
KLHDC8B | 1 | -0.16 | -0.46 | -0.22 | 0.19 | inactive
EFHC2 | 1 | 0.02 | -0.24 | 0.19 | 0.12 | inactive
ANKDD1B | 1 | -0.71 | -0.55 | -0.87 | -0.7 | inactive
NCOA4 | 1 | 1.09 | 0.85 | 1.1 | 1.31 | inactive
HGD | 1 | -0.57 | -0.77 | -0.95 | 0.01 | inactive
BLID | 1 | 0.16 | 0.3 | 0.13 | 0.06 | inactive
OR11A1 | 1 | 0.52 | 0.64 | 0.61 | 0.31 | inactive
TMEM115 | 1 | -0.88 | -0.88 | -1.08 | -0.67 | inactive
KCNJ1 | 1 | -0.64 | -0.47 | -0.77 | -0.67 | inactive
LOC402199 (retired record) | 1 | 0.21 | 0.15 | 0.16 | 0.32 | inactive
WASL | 1 | -0.31 | -0.27 | -0.31 | -0.36 | inactive
PDE3B | 1 | 0.41 | 0.85 | 0.08 | 0.31 | inactive
TOP2B | 1 | 1.03 | 1.37 | 0.72 | 1 | inactive
GNRHR2 | 1 | 0.57 | 0.24 | 0.74 | 0.74 | inactive
NUP37 | 1 | 0.6 | 0.65 | 0.06 | 1.08 | inactive
LINC00574 | 1 | -0.29 | -0.49 | -0.31 | -0.09 | inactive
EAF2 | 1 | -0.27 | -0.31 | -0.26 | -0.23 | inactive
ZNF44 | 1 | 0.93 | 1.19 | 0.78 | 0.82 | inactive
ZNF44 | 2 | 0.9 | 0.59 | 1.33 | 0.78 | inactive
JMJD8 | 1 | 0.8 | 0.58 | 0.75 | 1.07 | inactive
EIF3I | 1 | -2.3 | -1.65 | -2.39 | -2.88 | inactive
CXCL17 | 1 | -0.88 | -1.45 | -0.56 | -0.62 | inactive
PI3 | 1 | -0.72 | -0.64 | -0.65 | -0.86 | inactive
CCL22 | 1 | -0.19 | -0.33 | -0.27 | 0.04 | inactive
ZNF418 | 1 | 0.95 | -0.03 | 1.53 | 1.34 | inactive
SHISA2 | 1 | 0.55 | 0.34 | 0.96 | 0.37 | inactive
LPAR3 | 1 | 0.24 | -0.06 | 0.3 | 0.47 | inactive
LOC388416 (retired record) | 1 | -1.7 | -1.65 | -1.61 | -1.83 | inactive
CDH16 | 1 | -0.8 | -0.92 | -0.77 | -0.71 | inactive
LOC388297 (retired record) | 1 | 0.13 | 0.3 | -0.13 | 0.21 | inactive
C1QTNF6 | 1 | -0.46 | -0.27 | -0.41 | -0.69 | inactive
UBE2Z | 1 | -2.79 | -2.95 | -2.69 | -2.73 | inactive
PRPF3 | 1 | -3.71 | -4.17 | -3.48 | -3.49 | inactive
FZR1 | 1 | 0.24 | 0.03 | 0.4 | 0.28 | inactive
BMPR1A | 1 | -0.39 | -0.69 | -0.21 | -0.26 | inactive
ZNF337 | 1 | 0.1 | 0.03 | 0.32 | -0.05 | inactive
STXBP4 | 1 | -0.2 | -0.41 | -0.23 | 0.04 | inactive
CBY1 | 1 | 1.92 | 1.95 | 2.05 | 1.75 | inactive
NCBP2L | 1 | -0.11 | 0.5 | -0.27 | -0.56 | inactive
EMP2 | 1 | 0.19 | 0.24 | 0.12 | 0.21 | inactive
TUBA3C | 1 | 0.65 | 0.52 | 0.69 | 0.73 | inactive
ZFYVE16 | 1 | -1.42 | -1.49 | -1.54 | -1.22 | inactive
TAF11 | 1 | 0.64 | 0.53 | 1 | 0.38 | inactive
CFAP300 | 1 | -0.66 | -0.59 | -0.63 | -0.77 | inactive
MAJIN | 1 | 0.08 | 0.13 | 0.11 | 0.01 | inactive
KRT17 | 1 | -0.49 | -0.27 | -0.49 | -0.69 | inactive
GPSM1 | 1 | -1.45 | -1.79 | -1.03 | -1.52 | inactive
CEBPA | 1 | -1.28 | -1 | -1.15 | -1.68 | inactive
ZNG1B | 1 | -0.17 | -0.38 | -0.15 | 0.03 | inactive
SCARF1 | 1 | -0.58 | -0.66 | -0.44 | -0.64 | inactive
GYS2 | 1 | 0.32 | -0.23 | 0.33 | 0.87 | inactive
AICDA | 1 | 0.65 | 0.36 | 0.77 | 0.82 | inactive
FAN1 | 1 | -0.1 | 0.02 | -0.35 | 0.03 | inactive
PTPRA | 1 | 1.02 | 1.59 | 1.01 | 0.46 | inactive
EP400P1 | 1 | 4.53 | 4.77 | 4.54 | 4.28 | active
H4C1 | 1 | -0.82 | -1.18 | -0.65 | -0.63 | inactive
VASP | 1 | 0.17 | 0.1 | 0.26 | 0.15 | inactive
